Measurements reported in PubChem BioAssay AID624099 (ICCB-Longwood, 2012).
Here is a random part of about 21,000 reagents tested. 497 of all reagents (2.4%) count as active. 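Higher z means weaker E2 silencing; only reporter increases were scored, and knock-downs that hurt cell survival may mask genuine repressor factors.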 No sequences are given here.

Aim: 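Host factors E2 relies on to silence an HPV18 LCR reporter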 (primary screen)
Cells: human C33A cervical carcinoma cells (HPV-negative) stably expressing BPV1 E2 and an HPV18 LCR luciferase reporter
Reagent: siRNA pool against human genes, 40 nM
Time to read-out: 72 h
Measurement: 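Per-well luciferase luminescence, z-scored on each plate against the plate mean and SD with control wells left out, then averaged across three replicate plates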
Scale: mean z-score and z-score: higher = stronger reporter signal, weaker E2 silencing
Rule for the call: 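Mean z ≥ 2 together with z ≥ 2 in two or more of the three replicates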

gene knocked down | PubChem SID | mean z-score | z-score, replicate A | z-score, replicate B | z-score, replicate C | Outcome
SDC4 (syndecan 4) | SID134310042 | 1.27 | 1.33 | 1.49 | 0.98 | inactive
CIMAP2 (ciliary microtubule associated protein 2) | SID134320445 | 0.65 | 0.83 | 0.83 | 0.29 | inactive
SVEP1 | SID134326770 | -1.4 | -1.36 | -1.48 | -1.35 | inactive
LUC7L3 (LUC7 like 3 pre-mRNA splicing factor) | SID134319428 | 0.4 | 0.4 | 0.52 | 0.29 | inactive
LUC7L3 (LUC7 like 3 pre-mRNA splicing factor) | SID134323825 | -2.18 | -1.85 | -2.18 | -2.52 | inactive
LOC219638 (retired record) | SID134326664 | 0.43 | 0.35 | 0.56 | 0.4 | inactive
DDAH2 (DDAH family member 2, ADMA-independent) | SID134314498 | 0.47 | 0.15 | 0.63 | 0.62 | inactive
SH2D2A (SH2 domain containing 2A) | SID134321759 | 0.15 | 0.27 | 0.49 | -0.31 | inactive
CD200 (CD200 molecule) | SID134316470 | -0.73 | -0.6 | -0.42 | -1.17 | inactive
CLUL1 (clusterin like 1) | SID134321007 | 0.01 | 0.14 | 0.05 | -0.14 | inactive
FANCI (FA complementation group I) | SID134325363 | 0.17 | 0.24 | 0.15 | 0.13 | inactive
AGT (angiotensinogen) | SID134315353 | 0.1 | -0.01 | 0.26 | 0.06 | inactive
RHBDF2 (rhomboid 5 homolog 2) | SID134319807 | -0.81 | -0.63 | -1.07 | -0.74 | inactive
RAI2 (retinoic acid induced 2) | SID134316577 | 1.25 | 1.18 | 1.53 | 1.04 | inactive
AP5M1 (adaptor related protein complex 5 subunit mu 1) | SID134319561 | -0.04 | -0.09 | -0.01 | -0.03 | inactive
ATP5MC3 (ATP synthase membrane subunit c locus 3) | SID134323279 | 0.81 | 0.91 | 0.66 | 0.85 | inactive
IARS1 (isoleucyl-tRNA synthetase 1) | SID134314036 | -1.41 | -1.08 | -1.62 | -1.54 | inactive
SLC22A12 | SID134312492 | -1.38 | -1.32 | -1.31 | -1.53 | inactive
CFAP119 (cilia and flagella associated protein 119) | SID134328710 | -0.62 | -0.6 | -0.68 | -0.57 | inactive
ENY2 (ENY2 transcription and export complex 2 subunit) | SID134322646 | 3.02 | 2.58 | 2.97 | 3.51 | active
KIAA1143 | SID134318075 | -0.32 | -0.32 | -0.44 | -0.18 | inactive
IFT43 (intraflagellar transport 43) | SID134319201 | 0.18 | -0.06 | 0.07 | 0.51 | inactive
MAD1L1 (mitotic arrest deficient 1 like 1) | SID134311987 | 1.89 | 1.69 | 1.7 | 2.27 | inactive
MYO9B (myosin IXB) | SID134314267 | 0.79 | 0.46 | 0.75 | 1.15 | inactive
MYLK (myosin light chain kinase) | SID56479028 | -0.49 | -0.28 | -0.74 | -0.45 | inactive
GALNT5 (polypeptide N-acetylgalactosaminyltransferase 5) | SID134318373 | -0.73 | -0.58 | -0.68 | -0.93 | inactive
HSD3BP4 (hydroxy-delta-5-steroid dehydrogenase, 3 beta, pseudogene 4) | SID134327072 | -0.44 | -0.23 | -0.58 | -0.51 | inactive
ATP5IF1 (ATP synthase inhibitory factor subunit 1) | SID134321170 | -1.16 | -1.06 | -1.45 | -0.96 | inactive
CENPU (centromere protein U) | SID134310702 | 0.46 | 0.47 | 0.48 | 0.45 | inactive
PSKH2 (protein serine kinase H2) | SID56479040 | -1.62 | -1.55 | -1.44 | -1.86 | inactive
USP29 (ubiquitin specific peptidase 29) | SID134311498 | 0.1 | -0.02 | 0.06 | 0.27 | inactive
RYR3 (ryanodine receptor 3) | SID134311712 | 0.44 | 0.31 | 0.34 | 0.66 | inactive
ANKLE1 (ankyrin repeat and LEM domain containing 1) | SID134320451 | -1.73 | -1.74 | -1.61 | -1.83 | inactive
LOC401607 (retired record) | SID134329147 | 1.3 | 1.25 | 1.48 | 1.17 | inactive
PLOD3 (procollagen-lysine,2-oxoglutarate 5-dioxygenase 3) | SID134310364 | -1.16 | -1.13 | -1.25 | -1.09 | inactive
ZNF563 (zinc finger protein 563) | SID134319969 | -0.15 | -0.34 | -0.11 | 0.01 | inactive
HPGDS (hematopoietic prostaglandin D synthase) | SID134317936 | -1.15 | -1.32 | -1.17 | -0.96 | inactive
RAET1E (retinoic acid early transcript 1E) | SID134320854 | 0.19 | -0.06 | 0.07 | 0.55 | inactive
HINT2 (histidine triad nucleotide binding protein 2) | SID134319016 | 0.5 | 0.52 | 0.54 | 0.43 | inactive
ZHX3 (zinc fingers and homeoboxes 3) | SID134318322 | -0.83 | -1.15 | -0.87 | -0.46 | inactive
FBXL2 (F-box and leucine rich repeat protein 2) | SID134317782 | 1.93 | 1.64 | 2.06 | 2.08 | inactive
LOC388755 (retired record) | SID134327075 | 0.48 | 0.27 | 0.84 | 0.33 | inactive
CCN4 (cellular communication network factor 4) | SID134315054 | 0.31 | 0.19 | 0.4 | 0.34 | inactive
MMP11 (matrix metallopeptidase 11) | SID134311378 | -1.52 | -1.29 | -1.56 | -1.69 | inactive
SLC26A6 | SID134312540 | -0.37 | -0.62 | -0.32 | -0.18 | inactive
SULT1B1 (sulfotransferase family 1B member 1) | SID134313790 | 0.87 | 0.83 | 0.97 | 0.8 | inactive
CASK (calcium/calmodulin dependent serine protein kinase) | SID56479000 | 0.89 | 0.61 | 0.79 | 1.28 | inactive
NCDN (neurochondrin) | SID134317085 | -1.77 | -1.83 | -1.86 | -1.62 | inactive
CAMKMT (calmodulin-lysine N-methyltransferase) | SID134318593 | -1.22 | -1.33 | -1.3 | -1.03 | inactive
STK17A (serine/threonine kinase 17a) | SID56479048 | -0.29 | -0.45 | -0.16 | -0.27 | inactive
SAMM50 (SAMM50 sorting and assembly machinery component) | SID134321777 | -0.32 | -0.4 | 0 | -0.57 | inactive
TMEM132B (transmembrane protein 132B) | SID134326738 | -1.55 | -1.75 | -1.26 | -1.65 | inactive
TMEM132B (transmembrane protein 132B) | SID134326739 | 0.9 | 0.84 | 0.76 | 1.12 | inactive
ZNF600 (zinc finger protein 600) | SID134329336 | -0.07 | 0.46 | -0.08 | -0.59 | inactive
POLA1 (DNA polymerase alpha 1, catalytic subunit) | SID134324488 | 0.34 | 0.18 | 0.29 | 0.56 | inactive
RPL19 (ribosomal protein L19) | SID134315279 | -1.72 | -1.82 | -1.63 | -1.72 | inactive
LINC00312 (long independently transcribed non-coding RNA 312) | SID134324132 | 0.06 | -0.14 | -0.19 | 0.51 | inactive

5 entries from above, reduced to “z-score, replicate A”:
RAET1E (retinoic acid early transcript 1E) [SID134320854]	-0.06
HINT2 (histidine triad nucleotide binding protein 2) [SID134319016]	0.52
ZHX3 (zinc fingers and homeoboxes 3) [SID134318322]	-1.15
FBXL2 (F-box and leucine rich repeat protein 2) [SID134317782]	1.64
LOC388755 (retired record) [SID134327075]	0.27
